B1: MbAhpC double mutant D22N/K25Q (enzyme)
chain: MPLLTIGDQFPAYQLTALIGGNLSQVDAKQPGDYFTTITSDEHPGKWRVVFFWPKDFTFVCPTEIAAFSKLNDEFEDRDAQILGVSIDSEFAHFQWRAQHNDLKTLPFPMLSDIKRELSQAAGVLNADGVADRVTFIVDPNNEIQFVSATAGSVGRNVDEVLRVLDALQSDELCACNWRKGDPTLDAGELLKASA
B2: MbAhpC triple mutant D22N/K25Q/D27N (enzyme)
chain: B1 chain with D27N
B3: MbAhpC single mutant T5A (enzyme)
chain: B1 chain with T5A, N22D, Q25K
B4: Mycobacterium bovis thioredoxin TrxC (natural protein)
chain: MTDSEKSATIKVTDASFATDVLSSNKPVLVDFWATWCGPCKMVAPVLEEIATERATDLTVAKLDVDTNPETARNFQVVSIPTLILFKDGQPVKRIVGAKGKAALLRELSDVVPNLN
modifications: 15N-labelled

Substitutions are numbered along the chain they refer to. In names and notes the source's numbering stands.

Data set [1] concerns the molecule itself. Put plainly: SEC.
Data set [2] deals with the molecule itself. As to the kind of experiment: dynamic light scattering.
Data set [3] deals with B2. Put plainly: NMR titration.
For data set [4], the target named is MbAhpC double mutant T5A/D8A (Mycobacterium bovis (BCG strain), UniProt P9WQB7 1-195, T5A | D8A). As to the kind of experiment: NMR titration.

Consider B1, for which the binding result in data set [1] was “binds”.

For B2, in data set [1], the binding result was “binds”.

For the molecule B3, the binding result in data set [2] is listed as “binds”.

As for B4, the binding result in data set [3] and in data set [4] was “binds” throughout.

Values taken from paper PMC5505994 (Scientific Reports, 2017).
